Data as given in PubChem BioAssay AID1259414 (Drosophila RNAi Screening Center, 2018).

- Purpose: 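Host factors increasing or decreasing Wolbachia levels in cultured fly cells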 (primary screen)
- System: Drosophila JW18 cells infected with Wolbachia
- Reagent: long dsRNA against Drosophila genes, 0.25 µg dsRNA per well of a 384-well plate
- Timing: 5 days
- Treatment: cells persistently infected with Wolbachia before knock-down; no added drug
- Detection: 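Automated imaging of bacterial rRNA staining divided by host cell count, reported as plate-normalised robust z-score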
- Reading the numbers: Wolbachia per cell robust z: higher = more Wolbachia per host cell than the plate typical
- Call rule: 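Hit when robust z is 1.5 or more, or -1.5 or less, in at least two of three replicates; excludes dsRNAs with several or no targets, genes not expressed in JW18 and well A1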
The deposit covers about 24,000 reagents; shown is a random part of those that have a named target and a result. Over the whole deposit, about 1,210 (5%) are marked active. 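Inactive calls also include excluded dsRNAs with several or no targets, genes unexpressed in JW18, and well A1, regardless of score.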 A plus sign joins genes that one reagent is predicted to hit. No sequences are given here.

| predicted target | amplicon | Wolbachia per cell robust z, rep 1 | Wolbachia per cell robust z, rep 2 | Wolbachia per cell robust z, rep 3 | activity call |
| --- | --- | --- | --- | --- | --- |
| sub + Ir54a | DRSC06459 | 0.162 | 1.29 | -1.94 | inactive |
| CG10874 | DRSC00297 | 0.112 | 0.429 | 0.757 | inactive |
| CG10874 | DRSC26108 | -0.976 | -0.704 | -1 | inactive |
| CG8945 | DRSC20129 | 0.376 | -2.5 | 0.83 | inactive |
| Syx17 | DRSC08591 | -2.03 | -0.788 | 0.219 | inactive |
| Or98b | DRSC16775 | 0.158 | -0.798 | -0.269 | inactive |
| Or98b | DRSC21751 | -2.25 | 0.62 | -1.2 | inactive |
| CG42404 | DRSC15558 | 1.86 | 1.99 | 0.389 | active |
| bbx + waw | DRSC20575 | 0.324 | -1.68 | -1.98 | inactive |
| bbx + waw | DRSC20589 | -6.38 | -2.25 | -1.02 | inactive |
| bbx + waw | DRSC24894 | 0.105 | 0.115 | 0.159 | inactive |
| AP-1gamma | DRSC18433 | -1.33 | 1.01 | 0.134 | inactive |
| CG12376 | DRSC06144 | -1.12 | -0.612 | -3.47 | inactive |
| CG12376 | DRSC29464 | -0.556 | 0.0823 | -0.729 | inactive |
| CG45066 + CG45067 | DRSC27186 | 0.441 | 0.825 | 0.535 | inactive |
| Bet3 | DRSC10388 | -1.7 | -1.39 | -0.556 | inactive |
| Dhc36C | DRSC03315 | 0.865 | 0.875 | 0.854 | inactive |
| blanks | DRSC09757 | 0.0304 | -0.692 | 0.244 | inactive |
| CG2931 | DRSC12324 | -0.755 | -1.56 | -1.3 | inactive |
| CG7518 | DRSC16253 | 0.43 | -0.0114 | -0.271 | inactive |
| CG7518 | DRSC29146 | 0.147 | 0.435 | 0.919 | inactive |
| Spn77Bc + Spn77Bb | DRSC11793 | -0.268 | -0.478 | -0.675 | inactive |
| brp | DRSC06245 | 1.27 | 0.583 | 0.338 | inactive |
| brp | DRSC06246 | 1.03 | 1.54 | 0.744 | inactive |
| brp | DRSC06801 | 0.338 | -0.081 | 0.438 | inactive |
| brp | DRSC21893 | -0.406 | -2.03 | -1.2 | inactive |
| brp | DRSC29170 | -0.9 | -2.07 | -2.53 | active |
| brp | DRSC29721 | -0.0453 | 0.76 | -0.101 | inactive |

Individual results from above:
CG7518 [DRSC29146], Wolbachia per cell robust z, rep 3: 0.919
Under “Wolbachia per cell robust z, rep 1”, CG42404 [DRSC15558] reads 1.86
